Measured values from several laboratories, pooled; numbers as filed in NIAID ChemDB.

All rows: growth or infection tests; organism: Adenovirus; method: cytopathic effect; measure: EC50

ECn is the concentration giving n% inhibition of infection, replication or growth. An empty or dashed field is not shown. Neighbouring rows are from separate reports.

compound	strain	cells	value
Cc1cc(=O)c2c(O)c3c(O)cc(O)c4c5c(O)cc(O)c6c(O)c7c(=O)cc(C)c8c1c2c(c34)c(c65)c78	TYPE 2	HeLa	>100 µg/mL
O=c1ccn(CC(CO)OCP(=O)(O)O)c(=O)[nH]1	3 TYPES	HEL	>125 µg/mL
Nc1ncnc2c1ncn2C[C@H](CO)OCP(=O)(O)O	TRIM (TYPE 8)		1 µg/mL
OCC1=C[C@@H](O)[C@@H]2C=CO[C@@H](O[C@@H]3O[C@H](CO)[C@@H](O)[C@H](O)[C@H]3O)[C@H]12	TYPE 8	BCC-1/KMC	>200 µg/mL
Cc1cn(COC2CP(=O)(Oc3ccccc3)OC2C)c(=O)[nH]c1=O	TYPE 2	HEP-2	>320 µg/mL
Nc1ccnc2c1ncn2[C@H]1C=C[C@@H](OCP(=O)(O)O)O1	TRIM (TYPE 8)		8 µg/mL
COc1cc(/C=C/C(=O)O)ccc1O	TYPE 11	BCC-1/KMC	23.3 µg/mL
Nc1ncnc2c1ncn2C[C@@H](CO)OCP(=O)(O)O	TYPE 2	HEL	0.66 µM
Nc1nc(N)c2ncn(CCOCP(=O)(O)O)c2n1	3 TYPES	HEL	>125 µg/mL
Nc1ncnc2c1ncn2C[C@@H](CO)OCP(=O)(O)O	TYPE 2	HEL	0.2 µg/mL
Nc1ncc2ncn(CCOCP(=O)(O)O)c2n1	3 TYPES	HEL	>125 µg/mL
NC(=O)c1csc([C@@H]2O[C@H](CO)[C@@H](O)[C@H]2O)n1	Type 2/adenoid 6	HeLa	140 µg/mL
Nc1ncnc2c1ncn2CCOCP(=O)(O)O	3 TYPES	HEL	>125 µg/mL
O=c1ccn([C@H]2C[C@H](F)[C@@H](CO)O2)c(=O)[nH]1	TYPE 2	HEL	>100 µM
COc1cc(C(=O)O)ccc1O	TYPE 8	BCC-1/KMC	>200 µg/mL
Cc1cn(COC(CP(=O)(O)O)C(C)O)c(=O)[nH]c1=O	TYPE 2	HEP-2	>320 µg/mL
O=c1cc(-c2ccccc2)oc2cc(O)c(O)c(O)c12	TYPE 3	BCC-1/KMC	>20 µg/mL
Cc1cn([C@H]2C[C@H](F)[C@@H](CO)O2)c(=O)[nH]c1=O	TYPE 2	HEL	0.8 µM
Nc1ccn([C@H]2CC[C@@H](CO)O2)c(=O)n1	TYPE 8	BCC-1/KMC	10.2 µg/mL
Nc1nc(N)c2ncn(CC(CO)OCP(=O)(O)O)c2n1	3 TYPES	HEL	2.8 µg/mL
Nc1ncnc2c1ncn2C[C@@H](CO)OCP(=O)(O)O	TAK (TYPE 41)		1 µg/mL
Nc1ccn([C@H]2CC[C@@H](CO)O2)c(=O)n1	TYPE 2	HEL	1.4 µM
O=C(O)/C=C/c1ccc(O)c(O)c1	TYPE 8	BCC-1/KMC	>200 µg/mL
Nc1nc2c(ncn2COCCO)c(=O)[nH]1	TYPE 2	HEL	>1000 µM
Nc1nc2c(ncn2CC(CO)OCP(=O)(O)O)c(=O)[nH]1	3 TYPES	HEL	2.6 µg/mL

Again, the opening 3 rows:

{"compound": "Cc1cc(=O)c2c(O)c3c(O)cc(O)c4c5c(O)cc(O)c6c(O)c7c(=O)cc(C)c8c1c2c(c34)c(c65)c78", "strain": "TYPE 2", "cells": "HeLa", "value": ">100 µg/mL"}
{"compound": "O=c1ccn(CC(CO)OCP(=O)(O)O)c(=O)[nH]1", "strain": "3 TYPES", "cells": "HEL", "value": ">125 µg/mL"}
{"compound": "Nc1ncnc2c1ncn2C[C@H](CO)OCP(=O)(O)O", "strain": "TRIM (TYPE 8)", "value": "1 µg/mL"}